Results deposited as PubChem BioAssay AID624099 (ICCB-Longwood, 2012)
Assay: 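Human genes that papillomavirus E2 requires to repress the HPV18 LCR promoter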 (primary screen). Cells: human C33A cervical carcinoma cells (HPV-negative) stably expressing BPV1 E2 and an HPV18 LCR luciferase reporter. Reagents: siRNA pool against human genes, 40 nM. Duration: 72 h. Measured: 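HPV18 LCR reporter light per well, converted to plate-wise z-scores that exclude control wells, and averaged over triplicate plates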. Scale: mean z-score and z-score: higher = stronger reporter signal, weaker E2 silencing. Hit rule: 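Mean z ≥ 2 together with z ≥ 2 in two or more of the three replicates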.
The deposit covers about 21,000 reagents; shown is an unselected part. In the full data, 497 (2.4%) are marked active. 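Higher z means weaker E2 silencing; only reporter increases were scored, and knock-downs that hurt cell survival may mask genuine repressor factors.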 A number with no mark means an inactive call.

CRISP2 (cysteine rich secretory protein 2) → mean z-score: -0.03; z-score, replicate A: -0.02; z-score, replicate B: -0.01; z-score, replicate C: -0.06
LHX6 (LIM homeobox 6) → mean z-score: 1.04; z-score, replicate A: 0.83; z-score, replicate B: 0.93; z-score, replicate C: 1.35
ASCL4 (achaete-scute family bHLH transcription factor 4) → mean z-score: -0.06; z-score, replicate A: -0.01; z-score, replicate B: -0.15; z-score, replicate C: -0.03
DCXR (dicarbonyl and L-xylulose reductase) → mean z-score: 0.5; z-score, replicate A: 0.38; z-score, replicate B: 0.54; z-score, replicate C: 0.59
FOSB (FosB proto-oncogene, AP-1 transcription factor subunit) → mean z-score: -0.78; z-score, replicate A: -0.31; z-score, replicate B: -1.14; z-score, replicate C: -0.9
SERPINA1 (serpin family A member 1) → mean z-score: 1.73; z-score, replicate A: 2.48; z-score, replicate B: 1.2; z-score, replicate C: 1.51
DDX19A (DEAD-box helicase 19A) → mean z-score: -0.28; z-score, replicate A: -0.23; z-score, replicate B: -0.09; z-score, replicate C: -0.51
VMAC → mean z-score: -1.85; z-score, replicate A: -1.43; z-score, replicate B: -2.32; z-score, replicate C: -1.8
BEX2 (brain expressed X-linked 2) → mean z-score: 2.1 (active); z-score, replicate A: 1.58; z-score, replicate B: 2.42; z-score, replicate C: 2.28
ZNF136 (zinc finger protein 136) → mean z-score: -0.34; z-score, replicate A: -0.13; z-score, replicate B: -0.38; z-score, replicate C: -0.51
PDZD7 (PDZ domain containing 7) → mean z-score: 0.38; z-score, replicate A: 0.18; z-score, replicate B: 0.37; z-score, replicate C: 0.59
REDIC1 (regulator of DNA class I crossover intermediates 1) → mean z-score: 0.73; z-score, replicate A: 0.22; z-score, replicate B: 0.96; z-score, replicate C: 1.01

2 successive entries already listed:
VMAC → mean z-score: -1.85; z-score, replicate A: -1.43; z-score, replicate B: -2.32; z-score, replicate C: -1.8
BEX2 (brain expressed X-linked 2) → mean z-score: 2.1 (active); z-score, replicate A: 1.58; z-score, replicate B: 2.42; z-score, replicate C: 2.28
